Laboratory results taken from PubChem BioAssay AID1556 (The Scripps Research Institute Molecular Screening Center, 2009).
The entries are a selection whose mix differs from that of the whole data set. Activity calls are given as the source filed them.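 The calls were made as follows: active = inhibition above the mean plus 3 SD of all compounds in the same screening run (cut at about 4.5% in these data); inactive = the rest.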

Tested on: metallo-beta-lactamase IMP-1 (Pseudomonas aeruginosa)
Experiment: IMP-1 metallo-beta-lactamase inhibitors, primary screen, biochemical, epi-absorbance readout, Pseudomonas aeruginosa enzyme (AID 1556)
Details: purified IMP-1, nitrocefin hydrolysis, epi-absorbance fluorescence; at 5.6 µM; hits give high values
Summary of the method: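 assay system = purified recombinant IMP-1 metallo-beta-lactamase enzyme | schedule = 15 min preincubation plus 25 min reaction at 25 °C | signal = Epi-absorbance fluorescence, 480 nm excitation, 530 nm emission | read-out basis = percent inhibition from optical density relative to buffer-blank wells | controls = IMP-1 with DMSO as 0%, enzyme-free DMSO as 100%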

SMILES | inhibition
COc1cc(OC)c(C(=O)NCC2(N(C)C)CCCCC2)cc1OC | inactive: -1.66%
CN(C)c1cccc(C(=O)NCC2(N3CCCCC3)CCCCC2)c1 | inactive: 0.94%
COc1ccc(CN(CCCl)CCCl)cc1Cl | inactive: -1.97%
CC(C)c1ccc(NC2CCN(C(=O)OC(C)(C)C)CC2)cc1 | inactive: -2.04%
CCCOc1ccc(C(=O)NCC2(N(C)C)CCCCC2)cc1OC | inactive: -3.94%
CN1CCC(Nc2cccc(F)c2)CC1 | inactive: 0.44%
O=C(NCC1(N2CCCCC2)CCCCC1)c1cccc([N+](=O)[O-])c1 | inactive: -3.86%
N#CC1(Nc2ccccc2)CCN(CCc2ccccc2)CC1 | inactive: -2.06%
CCN1CCC(Nc2ccc(Cl)cc2)CC1 | inactive: -0.39%
O=C(NCC1(N2CCCCC2)CCCCC1)c1ccc(OC(F)F)cc1 | inactive: -1.05%
COc1ccc(NC2CCN(C(=O)OC(C)(C)C)CC2)cc1 | inactive: 0.05%
CN1CCN(CCOC(=O)C(O)(c2ccccc2)c2ccccc2)CC1 | inactive: -2.43%
O=C(NCC1(N2CCOCC2)CCCCC1)c1cc(=O)[nH]c2ccccc12 | inactive: -2.52%
COc1cc(C(=O)NCC2(N3CCCCC3)CCCCC2)ccc1OC(F)F | inactive: -4.83%
O=C(NCC1(N2CCCCC2)CCCCC1)c1cccc(C(F)(F)F)c1 | inactive: -3.27%
CCOC(=O)N1CCC(Nc2ccc(F)cc2)CC1 | inactive: -4.15%
COc1ccc(NC2CCN(CCc3ccccc3)CC2)c(OC)c1 | inactive: -3.77%
O=C(NCC1(N2CCCCC2)CCCCC1)c1ccc(F)cc1 | inactive: -1.94%
CCOc1ccc(C)cc1CN(CCCl)CCCl | inactive: -3.78%
Cc1ccc(OCC(C)C)c(CN(CCCl)CCCl)c1 | inactive: -5.84%
CCOC(=O)N1CCC(Nc2cccc(C)c2)CC1 | inactive: -0.76%
COc1cc(C(=O)NCC2(N(C)C)CCCCC2)ccc1OC(F)F | inactive: -2.36%
CSc1ccccc1C(=O)NCC1(N2CCCCC2)CCCCC1 | inactive: -2.68%
O=C(NCC1(N2CCCCC2)CCCCC1)c1ccc(=O)[nH]c1 | inactive: -3.79%
CC(C)(C)OC(=O)N1CCC(N(C(=O)c2ccccc2)c2ccc(F)cc2)CC1 | inactive: -3.13%
COc1ccc(C(=O)NCC2(N3CCCCC3)CCCCC2)c(OC)c1OC | inactive: -1.58%
COc1ccc(C(=O)NCC2(N3CCCCC3)CCCCC2)cc1 | inactive: -3.02%

SMILES | inhibition
CCOC(=O)N1CCC(Nc2ccc(OC)cc2)CC1 | inactive: -4.34%
N#CC1(Nc2ccccc2)CCN(Cc2ccccc2)CC1 | inactive: -4.1%
O=C(OC1CN2CCC1CC2)C1c2ccccc2Oc2ccccc21 (centres undefined) | inactive: -1.44%
O=C(NCC1(N2CCOCC2)CCCCC1)c1cc2ccccc2o1 | inactive: -1.76%
Cc1cc(C)cc(N(C(=O)c2ccccc2)C2CCN(C(=O)OC(C)(C)C)CC2)c1 | inactive: -1.85%
CCCOc1ccc(C(=O)NCC2(N(C)C)CCCCC2)cc1 | inactive: -1.97%
O=C(O)C1(Nc2ccccc2)CCN(Cc2ccccc2)CC1 | inactive: -1.04%
CC(C)(C)OC(=O)N1CCC(Nc2ccccc2)CC1 | inactive: -3.94%
CN1CCC(Nc2ccc(F)c(Cl)c2)CC1 | inactive: -0.22%
CCOc1ncccc1C(=O)NCC1(N2CCOCC2)CCCCC1 | inactive: -2.85%
CCCOc1ccc(C)cc1CN(CCCl)CCCl | inactive: -3.85%
CN1CCC(Nc2ccc(Cl)cc2)CC1 | inactive: -2.36%
CCC(CO)(C(=O)OC1CN2CCC1CC2)c1ccccc1 (centres undefined) | inactive: 0.07%
COc1cccc(C(=O)N(c2cc(C)cc(C)c2)C2CCN(C(=O)OC(C)(C)C)CC2)c1 | inactive: -2.02%
COc1cc(OC)cc(C(=O)NCC2(N3CCOCC3)CCCCC2)c1 | inactive: -2.6%
COc1cc(OC)cc(C(=O)NCC2(N3CCCCC3)CCCCC2)c1 | inactive: -3.14%
CN(C)c1ccc(C(=O)NCC2(N3CCCCC3)CCCCC2)cc1 | inactive: -1%
CCN1CCC(Nc2cccc(F)c2)CC1 | inactive: -2.73%
CC(C)(C)OC(=O)N1CCC(N(C(=O)c2ccccc2)c2ccc(Cl)cc2)CC1 | inactive: -4.17%
N#Cc1ccc(C(=O)NCC2(N3CCCCC3)CCCCC2)cc1 | inactive: -2.19%
CCCN1CCC(Nc2cc(OC)cc(OC)c2)CC1 | inactive: 0.88%
c1ccc(CN2CCC(Nc3ccccc3)CC2)cc1 | inactive: -3.15%
CN(C)C1(CNC(=O)c2cccc(C#N)c2)CCCCC1 | inactive: -1.68%
COc1ccc(C(=O)NCC2(N3CCOCC3)CCCCC2)cc1OC | inactive: -3.17%
O=C(OC1CN2CCC1CC2)C1c2ccccc2C=Cc2ccccc21 (centres undefined) | inactive: -0.74%
N/C(=N\O)c1c(N)no[n+]1[O-] | inactive: -5.18%
CCOC(=O)N1CCC(Nc2ccc(C)cc2)CC1 | inactive: -3.12%
